Compound potency records, mixed from different reports. Data source: NIAID ChemDB in PubChem.

All rows: growth or infection tests; species: Candida albicans; measure: MIC

Conditions beyond the fields shown may differ between rows. An empty or dashed field is not shown.

C[n+]1c2cccc(O)c2cc2sc3ccccc3c21 ; strain: ATCC 90028 ; method: resazurin ; result: >20 µg/mL
CC(C)CCC[C@@H](C)[C@H]1CC[C@H]2C3C/C(=N\Nc4ccccc4)C4C[C@@H](O)CC[C@]4(C)C3CC[C@]12C ; strain: CIP 1663-86 ; result: 12.5 µg/mL
COC(=O)[C@@H]1[C@H](C(=O)OC)[C@H](c2cccc3ccccc23)N(C(=S)NC(=O)c2ccccc2)[C@@H]1C(=O)OC ; strain: ATCC 90028 ; result: 50 µg/mL
CC(C)CCC[C@@H](C)[C@H]1CC[C@H]2C3C(CC[C@]12C)[C@@]1(C)CC/C(=N\N)C[C@@H]1C[C@@H]3O ; strain: CIP 1180-79 ; result: 25 µg/mL
Cc1nn2c(-c3ccncc3)nnc2sc1=NNc1ccc(Cl)cc1 ; strain: ATCC 66027 ; method: broth dilution ; result: 6.25 µg/mL
CCCCNC(=S)c1ccc[nH]c1=S ; result: 25 µg/mL
O=[N+]([O-])c1ccc2[nH]c3c4ccc(Cl)cc4nnc3c2c1 ; result: 66 µM
CCCCCCCCC[C@@H]1CC(=O)NCC(=O)N[C@@H](CCCCN(C)Cc2ccccc2)C(=O)N[C@@H](C(C)C)C(=O)N1 ; strain: ATCC 24433 ; result: >128 µg/mL
C=CC(C)(/C=C\c1ccc(O)cc1)c1ccc(O)cc1 ; strain: KULM 83-0030 ; result: 50 µg/mL
O=C(Nc1cc([N+](=O)[O-])ccc1O)c1ccc(Cl)cc1 ; result: 25 µg/mL
CC(C)S(=O)(=O)Nc1ccc(CN(C)CC(O)(Cn2cncn2)c2ccc(F)cc2F)cc1 ; strain: 98 001 ; method: resazurin ; result: 0.026 µg/mL
COc1cc(NC(C)CCCNC(=O)[C@H](CCCN=C(N)N)NC(=O)[C@@H](N)CCCN=C(N)N)c2nc(C(C)(C)C)ccc2c1 ; method: broth dilution ; result: >20 µg/mL
COC(=O)[C@H]1C[C@@](Cc2ccccc2)(C(=O)OC)N(C(=S)NC(=O)c2ccccc2)[C@H]1c1ccccc1 ; strain: ATCC 90028 ; result: 100 µg/mL
Clc1ccc2[nH]c3c4ccccc4nnc3c2c1 ; result: >200 µM
CCC(C)CC(C)CCCCCCCCC(=O)N[C@H]1C[C@@H](O)[C@H](NCCN)NC(=O)[C@@H]2[C@@H](O)CCN2C(=O)[C@H]([C@H](O)CCN)NC(=O)[C@H]([C@H](O)[C@@H](O)c2ccc(O)cc2)NC(=O)[C@@H]2C[C@@H](O)CN2C(=O)[C@H]([C@@H](C)O)NC1=O ; strain: 40 isolates ; result: 32 µg/mL
S=C(NCCCc1ccccc1)c1ccc[nH]c1=S ; result: 10 µg/mL
CN(Cc1ccc(S(=O)(=O)Nc2ccccc2)cc1)CC(O)(Cn1cncn1)c1ccc(F)cc1F ; strain: 98 001 ; method: resazurin ; result: 0.004 µg/mL
O[C@](Cn1cncn1)(Cn1cnc(/C=C/c2ccc(OCC(F)(F)C(F)F)cc2)n1)c1ccc(F)cc1F ; strain: CA505 ; result: 0.9 µM
S=C(NCCc1ccccc1)c1ccc[nH]c1=S ; result: 30 µg/mL
COc1cc(NC(C)CCCNC(=O)[C@H](CCCCN)NC(=O)[C@@H](N)CCCCN)c2ncccc2c1 ; method: broth dilution ; result: >20 µg/mL
COC(=O)[C@H]1C[C@@](CC(C)C)(C(=O)OC)N(C(=S)NC(=O)c2ccccc2)[C@H]1c1ccccc1 ; strain: ATCC 90028 ; result: 75 µg/mL
CCC(=O)/C=C1\Sc2ccccc2N1/C1=C/CCCCCCCCCC1 ; strain: ATCC 14053 ; result: ≥100 µg/mL
Cc1ccc(S(=O)(=O)N/N=C2/C=C3C[C@@H](O)CC[C@]3(C)C3CC[C@]4(C)[C@@H]([C@H](C)CCCC(C)C)CC[C@H]4C23)cc1 ; strain: CIP 1180-79 ; result: 12.5 µg/mL
CCC(=O)C1Sc2ccccc2N(C2CCCCCC2)C1=O ; strain: ATCC 14053 ; result: ≥100 µg/mL
COc1cc(NC(C)CCCNC(=O)[C@@H](CCCN=C(N)N)NC(=O)[C@H](N)CCCN=C(N)N)c2nc(C(C)(C)C)ccc2c1 ; method: broth dilution ; result: >20 µg/mL
CN(Cc1ccc(S(=O)(=O)N2CCOCC2)cc1)CC(O)(Cn1cncn1)c1ccc(F)cc1F ; strain: 98 001 ; method: resazurin ; result: 0.018 µg/mL
COc1cc(NC(C)CCCNC(=O)CCC(NC(=O)[C@@H](N)CCCN)C(=O)O)c2nc(C(C)(C)C)ccc2c1 ; method: broth dilution ; result: >20 µg/mL
O=C(O)CNc1ccc(C(=O)/C=C/c2nc3ccccc3c(=O)n2-c2ccccc2)cc1 ; result: >200 µg/mL
Cc1ccc(N/N=c2/sc3nnc(-c4ccncc4)n3nc2C)cc1 ; strain: ATCC 10231 ; method: broth dilution ; result: >100 µg/mL
Cc1ccc(C(=O)Nc2cc(C)ccc2O)c(C)c1 ; result: 12.5 µg/mL
Cc1ccc(S(=O)(=O)N/N=C2/C=C3C[C@H](O)C4C(CC[C@]5(C)[C@@H]([C@H](C)CCCC(C)C)CC[C@@H]45)[C@@]3(C)CC2)cc1 ; strain: CIP 1180-79 ; result: >50 µg/mL
Cc1nn2c(-c3ccncc3)nnc2s/c1=N/Nc1ccc(S(N)(=O)=O)cc1 ; strain: ATCC 10231 ; method: broth dilution ; result: >100 µg/mL
CN(Cc1ccc(S(N)(=O)=O)cc1)CC(O)(Cn1cncn1)c1ccc(F)cc1F ; strain: 98 001 ; method: resazurin ; result: 0.013 µg/mL
CCCCN1/C(=C/C(=O)c2ccccc2)Sc2ccccc21 ; strain: ATCC 14053 ; result: 50 µg/mL
O=C(/C=C/c1nc2ccccc2c(=O)n1-c1ccccc1)c1ccc(N2CC(O)ON2)cc1 ; result: >200 µg/mL
O=C(Cc1ccc(Cl)cc1)Nc1ccccc1O ; result: 25 µg/mL
CC(=O)Nc1ccc(C(=O)/C=C/c2nc3ccccc3c(=O)n2-c2ccc(Br)cc2)cc1 ; result: >200 µg/mL
CCC(C)CC(C)CCCCCCCCC(=O)N[C@H]1C[C@@H](O)[C@H](NCCN)NC(=O)[C@@H]2[C@@H](O)CCN2C(=O)[C@H]([C@H](O)CCN)NC(=O)[C@H]([C@H](O)[C@@H](O)c2ccc(O)cc2)NC(=O)[C@@H]2C[C@@H](O)CN2C(=O)[C@H]([C@@H](C)O)NC1=O ; strain: 50 isolates ; result: 0.4 µg/mL
CC(C)c1ccc(NS(=O)(=O)c2ccc(CN(C)CC(O)(Cn3cncn3)c3ccc(F)cc3F)cc2)cc1 ; strain: 98 001 ; method: resazurin ; result: 0.03 µg/mL
Brc1ccc2[nH]c3c4ccccc4nnc3c2c1 ; result: >200 µM
Nc1ccc(-c2nc3ccccc3o2)cc1 ; result: 25 µg/mL
N=C(N)c1ccc2nc(-c3ccc(-c4nc5ccc(C(=N)N)cc5[nH]4)[nH]3)[nH]c2c1 ; strain: A39 ; result: 0.78 µg/mL
Cc1ccc(S(=O)(=O)N/N=C2\CC3C(CC[C@]4(C)[C@@H]([C@H](C)CCCC(C)C)CC[C@@H]34)[C@@]3(C)CC[C@H](O)CC23)cc1 ; strain: CIP 1663-86 ; result: 1.5 µg/mL
CC(C)(O)c1cn(-c2ccc(Cl)cc2)nn1 ; strain: URM 4386 ; method: broth dilution ; result: 128 µg/mL
Cc1nn2c(-c3ccncc3)nnc2sc1=NNc1ccc(Br)cc1 ; strain: ATCC 66027 ; method: broth dilution ; result: 12.5 µg/mL
Nc1[nH]c(=O)ncc1F ; strain: 9760-H85 ; result: 1.56 µg/mL
CCCCCCCCC[C@@H]1CC(=O)NCC(=O)N[C@@H](CCCCNC(C)=O)C(=O)N[C@@H](C(C)C)C(=O)N1 ; strain: ATCC 24433 ; result: >16 µg/mL
O=c1c2cccnc2sn1CCc1ccccc1 ; result: 30 µg/mL
CCCCCCCCCCC[C@@H]1CC(=O)NCC(=O)N[C@@H](CCCCN)C(=O)N[C@@H](CC2CCCCC2)C(=O)N1 ; strain: ATCC 24433 ; result: 64 µg/mL
CCCC(=O)/C=C1\Sc2cc(OC)ccc2N1C1=CCCCCC1 ; strain: ATCC 14053 ; result: >100 µg/mL
O=C(O)CNc1ccc(C(=O)/C=C/c2nc3ccccc3c(=O)n2-c2ccc(Br)cc2)cc1 ; result: >200 µg/mL
CCCCCCCCC[C@@H]1CC(=O)NCC(=O)N[C@@H](CCCN=C(N)N)C(=O)N[C@@H](C(C)C)C(=O)N1 ; strain: ATCC 24433 ; result: 2 µg/mL
CC(=O)Nc1ccc(C(=O)/C=C/c2nc3ccccc3c(=O)n2-c2ccc(C)cc2)cc1 ; result: >200 µg/mL
COc1ccc2sc3cc4ccccc4[n+](C)c3c2c1 ; strain: ATCC 90028 ; method: resazurin ; result: >20 µg/mL
COc1cc(NC(C)CCCNC(=O)[C@H](CCCCN)NC(=O)[C@@H](N)CCCCN)c2nc(C(C)(C)C)ccc2c1 ; method: broth dilution ; result: >20 µg/mL
S=c1c2cccnc2sn1Cc1ccccc1 ; result: 20 µg/mL
Cc1ccc(S(=O)(=O)N/N=C2\CC[C@@]3(C)C(=C/C(=N/NS(=O)(=O)c4ccc(C)cc4)C4C3CC[C@]3(C)[C@@H]([C@H](C)CCCC(C)C)CC[C@@H]43)C2)cc1 ; strain: CIP 1180-79 ; result: >50 µg/mL
O=NN(CC(=O)O)c1ccc(C(=O)/C=C/c2nc3ccccc3c(=O)n2-c2ccc(Br)cc2)cc1 ; result: 50 µg/mL
O=c1c2cccnc2sn1CCCc1ccccc1 ; result: 20 µg/mL

Repeating the first 4 entries:

compound | strain | method | result
C[n+]1c2cccc(O)c2cc2sc3ccccc3c21 | ATCC 90028 | resazurin | >20 µg/mL
CC(C)CCC[C@@H](C)[C@H]1CC[C@H]2C3C/C(=N\Nc4ccccc4)C4C[C@@H](O)CC[C@]4(C)C3CC[C@]12C | CIP 1663-86 | - | 12.5 µg/mL
COC(=O)[C@@H]1[C@H](C(=O)OC)[C@H](c2cccc3ccccc23)N(C(=S)NC(=O)c2ccccc2)[C@@H]1C(=O)OC | ATCC 90028 | - | 50 µg/mL
CC(C)CCC[C@@H](C)[C@H]1CC[C@H]2C3C(CC[C@]12C)[C@@]1(C)CC/C(=N\N)C[C@@H]1C[C@@H]3O | CIP 1180-79 | - | 25 µg/mL